The text below walks through data of patent US20060014673A1 (priority 1998, published 2006).

In assay [1] the test system is Primary cultures of neonatal rat cortex. Particulars: for effect on intracellular calcium levels: increasing concentrations in the continued presence of aconitine. A general note: Calcium assays in cells follow changes in intracellular calcium, usually with a dye or a luminescent sensor.
Assay [2] has the same test system. The assay is described as follows: Fluo-3 fluorimetry of intracellular calcium, non-depolarized cortical cultures. The assay is classed as cell-based.

Regarding “Ala-Xaa3-Xaa4-Leu-Val-Xaa3-Ser-Thr-Ile-Thr-Thr-Cys-Cys-Gly-Xaa5-Asn-Xaa3-Gly-Thr-Met-Cys-Xaa3-Xaa3-Cys-Arg-Cys-Asp-Asn-Thr-Cys”, the “change of the induced response over time” value in assay [1] (up to 30 min, 1 μM, in Aconitine) was “No significant changes”.

As to `CC[C@H](C)[C@H](NC(=O)[C@@H](NC(=O)[C@H](CO)NC(=O)[C@@H]1CCCN1C(=O)[C@@H](NC(=O)[C@H](CC(C)C)NC(=O)[C@H](Cc1c[nH]c2ccccc12)NC(=O)[C@@H]1CCCN1C(=O)[C@H](C)N)C(C)C)[C@@H](C)O)C(=O)N[C@H](C(=O)N[C@H](C(=O)N[C@H]1CSSC[C@@H]2NC(=O)[C@H](CCCNC(=N)N)NC(=O)[C@H](CSSC[C@@H](C(N)=O)NC(=O)[C@H]([C@@H](C)O)NC(=O)[C@H](CC(N)=O)NC(=O)[C@H](CC(=O)O)NC2=O)NC(=O)[C@@H]2C[C@@H](O)CN2C(=O)[C@@H]2C[C@@H](O)CN2C(=O)[C@@H]2CSSC[C@H](NC1=O)C(=O)NCC(=O)N[C@@H](Cc1ccc(O)cc1)C(=O)N[C@@H](CC(N)=O)C(=O)N1C[C@H](O)C[C@H]1C(=O)NCC(=O)N[C@@H]([C@@H](C)O)C(=O)N[C@@H](CCSC)C(=O)N2)[C@@H](C)O)[C@@H](C)O`, in assay [2], the “potency in non-depolarized compared with depolarized cultures” value is “slightly less potent”. Besides, the EC50 in assay [2] (read-out: potency, increase in intracellular calcium, non-depolarized environment (no Aconitine)) turned out to be 1580 nM. For the same compound, the “effect of 4-AP pretreatment on the κA A671 induced calcium response” value in assay [1] (2 uM peak 2 in continued presence of 4-AP and aconitine) was “reduced the size”. In assay [1] (depolarized with Aconitine), the “potency of peak 2 relative to peak 1” value is reported as “approximately 10 fold”. Moreover, the “effect on intracellular calcium levels” value in assay [1] is “further significant enhancement”. Besides, the “increase in intracellular calcium in the continued presence of dendrotoxin” value in assay [1] (peak 2 (2 μM), cells pretreated with aconitine and dendrotoxin) was “still able to produce a significant increase”.

Take `CC[C@H](C)[C@H](NC(=O)[C@@H](NC(=O)[C@H](CO)NC(=O)[C@@H]1CCCN1C(=O)[C@@H](NC(=O)[C@H](CC(C)C)NC(=O)[C@H](Cc1c[nH]c2ccccc12)NC(=O)[C@@H]1CCCN1C(=O)[C@H](C)N)C(C)C)[C@@H](C)O)C(=O)N[C@H](C(=O)N[C@H](C(=O)N[C@H]1CSSC[C@@H]2NC(=O)[C@H](CCSC)NC(=O)[C@H]([C@@H](C)O)NC(=O)CNC(=O)[C@@H]3C[C@@H](O)CN3C(=O)[C@H](CC(N)=O)NC(=O)[C@H](Cc3ccc(O)cc3)NC(=O)CNC(=O)[C@H](CSSC[C@@H]3NC(=O)[C@H](CCCNC(=N)N)NC(=O)[C@H](CSSC[C@@H](C(N)=O)NC(=O)[C@H]([C@@H](C)O)NC(=O)[C@H](CC(N)=O)NC(=O)[C@H](CC(=O)O)NC3=O)NC(=O)[C@@H]3C[C@@H](O)CN3C(=O)[C@@H]3C[C@@H](O)CN3C2=O)NC1=O)[C@@H](C)O)[C@@H](C)O`: in assay [2], the “potency in non-depolarized compared with depolarized cultures” value is reported as “equally potent”. Further, in assay [1], the “effect on intracellular calcium levels” value is “further significant enhancement”.
